Our source for the koff values is PMC11666439.

By UniProt entry, the sequences of proteins in these tests, tags left out. Residues count along the entry.
UniProt Q9BYF1, 18-740: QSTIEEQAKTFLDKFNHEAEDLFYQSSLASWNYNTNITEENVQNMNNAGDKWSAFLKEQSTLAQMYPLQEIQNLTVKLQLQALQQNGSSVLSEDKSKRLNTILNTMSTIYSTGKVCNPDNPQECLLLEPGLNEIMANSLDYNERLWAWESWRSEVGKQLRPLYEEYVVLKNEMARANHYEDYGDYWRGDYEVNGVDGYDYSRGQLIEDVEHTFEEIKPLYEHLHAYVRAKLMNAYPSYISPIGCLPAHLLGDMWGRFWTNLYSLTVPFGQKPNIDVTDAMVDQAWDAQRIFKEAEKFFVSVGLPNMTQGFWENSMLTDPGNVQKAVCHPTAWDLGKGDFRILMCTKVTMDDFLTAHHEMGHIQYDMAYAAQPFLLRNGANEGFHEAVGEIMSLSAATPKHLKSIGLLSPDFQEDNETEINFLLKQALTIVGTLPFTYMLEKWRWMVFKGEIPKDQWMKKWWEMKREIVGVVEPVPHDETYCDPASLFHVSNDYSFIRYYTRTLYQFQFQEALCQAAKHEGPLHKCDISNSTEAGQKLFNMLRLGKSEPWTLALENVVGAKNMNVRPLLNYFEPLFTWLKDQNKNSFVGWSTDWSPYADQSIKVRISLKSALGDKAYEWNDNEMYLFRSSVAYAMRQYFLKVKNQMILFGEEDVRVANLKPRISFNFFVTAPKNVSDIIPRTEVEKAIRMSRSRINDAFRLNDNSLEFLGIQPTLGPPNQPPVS

What is called koff is the first-order rate constant of dissociation.

This test deals with ACE-2-Fc fusion protein (human) (UniProt Q9BYF1). Briefly: BLI. The following applies: domain or fragment.

Turning to SARS-CoV-2 RBD wt, the koff was 0.00566 s⁻¹.
